Reference: patent EP0479888B1, “IMPROVED BUILDER-CONTAINING AQUEOUS CLEANER/DEGREASER MICROEMULSION COMPOSITIONS” (BUCKEYE INTERNATIONAL, INC., priority 1989, dated 1991)

Test: aqueous solubility of organic solvents
Conditions: water

CCCCOP(=O)(OCCCC)OCCCC
aqueous ambient temperature solubility: 0.6 wt.%
